Data source: PubChem BioAssay AID504761 (Drosophila RNAi Screening Center, 2011)

Assay: 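Fly genes whose silencing reduces dengue virus type 2 infection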 (primary screen)
System: D.Mel-2 cells from Drosophila
Reagent: long dsRNA against Drosophila genes
Conditions: infection with dengue virus type 2; dose and infection time not stated
Measurement: 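Per well on two replicate plates, imaging gave the percent of cells positive for viral envelope protein, ranked by infection, and a nuclear count of cells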
Reading the numbers: infection score: higher = more virus-infected cells; cell count: higher = more cells in the well
Hit rule: 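Low infection ranks in the two replicates (chance level up to 0.065) followed by a retest with a 1.5-fold or larger significant decrease, p below 0.05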
Calls: active = confirmed: knock-down lowers infection; inactive = not picked or not confirmed
The deposit covers about 22,000 reagents; this is an unselected part of those with a known target gene and a result. Over the whole deposit, 116 (0.52%) were called active. 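Calls depend on retest data that are not deposited; infection was ranked per plate without normalising between plates; the unit of the infection score is not given.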 The raw values are shown without normalisation. The numbers tell different reagents against one gene apart. A plus sign joins genes that one reagent is predicted to hit. Not stated in the record: the amount of reagent, the time to read-out.

target gene | reagent | infection score, replicate 1 | infection score, replicate 2 | cell count, replicate 1 | cell count, replicate 2 | call
Mst84Db (Male-specific RNA 84Db) | 1 | 7.83 | 1.49 | 6273 | 6768 | inactive
Mst84Db (Male-specific RNA 84Db) | 2 | 6.55 | 7.2 | 5981 | 6641 | inactive
Mst84Db (Male-specific RNA 84Db) | 3 | 25.5 | 10.9 | 4417 | 1299 | inactive
Cda9 (Chitin deacetylase-like 9) | 1 | 5.13 | 9.3 | 6358 | 6378 | inactive
CG15337 | 1 | 6.69 | 6.1 | 6221 | 6464 | inactive
CG15337 | 2 | 0.85 | 5.78 | 5634 | 7523 | inactive
CG14491 | 1 | 13 | 11.8 | 6808 | 5989 | inactive
CG14491 | 2 | 18.4 | 21.1 | 6254 | 3696 | inactive
Crk (Crk oncogene) | 1 | 5.16 | 5.37 | 6565 | 6556 | inactive
ChT (Choline transporter) | 1 | 10.4 | 2.64 | 5996 | 6440 | inactive
yellow-d | 1 | 2.81 | 2.58 | 7268 | 6757 | inactive
yellow-d | 2 | 14.8 | 36.3 | 6208 | 5775 | inactive
CG5773 | 1 | 7.24 | 30.4 | 6876 | 4037 | inactive
CG5773 | 2 | – | – | 379 | 303 | inactive
CG33258 | 1 | 4.94 | 2.98 | 5769 | 5714 | inactive
CG33258 | 2 | 2.28 | 0.91 | 6013 | 6047 | inactive
CG5510 | 1 | 2.2 | 4.18 | 6446 | 6432 | inactive
CG5126 | 1 | 1.13 | 0.79 | 6182 | 6331 | inactive
CG14687 | 1 | 0.92 | 1.01 | 6071 | 6666 | inactive
CG14687 | 2 | 19.2 | 5.55 | 5783 | 919 | inactive
Gr10a (Gustatory receptor 10a) | 1 | 1.66 | 1.21 | 6217 | 6841 | inactive
Gr10a (Gustatory receptor 10a) | 2 | 5.02 | 5.69 | 5972 | 1125 | inactive
Gr10a (Gustatory receptor 10a) | 3 | 9.32 | 4.24 | 6532 | 6489 | inactive
CG8490 | 1 | 22.7 | 11.7 | 5185 | 5714 | inactive
CG8490 | 2 | 11.9 | 18.5 | 6440 | 5782 | inactive
Mctp (Multiple C2 domain and transmembrane region protein) | 1 | 2.81 | 4.21 | 6439 | 6225 | inactive
Mctp (Multiple C2 domain and transmembrane region protein) | 2 | 1.7 | 22.6 | 5872 | 5209 | inactive
Mctp (Multiple C2 domain and transmembrane region protein) | 3 | 4.72 | 1.49 | 6436 | 6566 | inactive
Mctp (Multiple C2 domain and transmembrane region protein) | 4 | 24.9 | 27.6 | 6052 | 5385 | inactive
DUBAI + Tmem18 | 1 | 2.95 | 0.96 | 6331 | 5907 | inactive

The list goes on, starting with the last 7 of the part before.
target gene | reagent | infection score, replicate 1 | infection score, replicate 2 | cell count, replicate 1 | cell count, replicate 2 | call
CG8490 | 1 | 22.7 | 11.7 | 5185 | 5714 | inactive
CG8490 | 2 | 11.9 | 18.5 | 6440 | 5782 | inactive
Mctp (Multiple C2 domain and transmembrane region protein) | 1 | 2.81 | 4.21 | 6439 | 6225 | inactive
Mctp (Multiple C2 domain and transmembrane region protein) | 2 | 1.7 | 22.6 | 5872 | 5209 | inactive
Mctp (Multiple C2 domain and transmembrane region protein) | 3 | 4.72 | 1.49 | 6436 | 6566 | inactive
Mctp (Multiple C2 domain and transmembrane region protein) | 4 | 24.9 | 27.6 | 6052 | 5385 | inactive
DUBAI + Tmem18 | 1 | 2.95 | 0.96 | 6331 | 5907 | inactive
CG11927 | 1 | 11.2 | 28 | 4367 | 3683 | inactive
CG13843 | 1 | 17.1 | – | 5274 | 292 | inactive
Rab9Db + Rab9Fa | 1 | 2.38 | 6.89 | 6296 | 5933 | inactive
jub (Ajuba LIM protein) | 1 | 3.39 | 4.47 | 5520 | 5411 | inactive
jub (Ajuba LIM protein) | 2 | 5.82 | 7.01 | 3335 | 5864 | inactive
blow (blown fuse) | 1 | 34.4 | 35.5 | 5938 | 5903 | inactive
blow (blown fuse) | 2 | 3.43 | 14.6 | 6879 | 5780 | inactive
dnt (doughnut on 2) | 1 | 10.6 | 5.9 | 6684 | 6220 | inactive
dnt (doughnut on 2) | 2 | 0.98 | 4.13 | 6109 | 6157 | inactive
msl-1 (male-specific lethal 1) | 1 | 3.36 | 1.65 | 5661 | 6290 | inactive
CG13426 | 1 | 2.2 | 2.91 | 6217 | 6259 | inactive
CG8838 | 1 | 2.37 | 6.75 | 6284 | 6114 | inactive
CG8838 | 2 | 23.3 | 23.6 | 6255 | 6030 | inactive
lsn (larsen) | 1 | 1.51 | 1.04 | 6469 | 6627 | inactive
lsn (larsen) | 2 | 6.74 | 4.52 | 5608 | 5071 | inactive
CG1418 | 1 | 6.44 | 6.79 | 6831 | 6263 | inactive
CG1418 | 2 | 14.3 | 20.7 | 6275 | 6283 | inactive
Pex11c (Peroxin 11c) | 1 | 1.14 | 3.16 | 7217 | 6396 | inactive
Mst84Dd (Male-specific RNA 84Dd) | 1 | 4.02 | 10.1 | 6410 | 1965 | inactive
Mst84Dd (Male-specific RNA 84Dd) | 2 | 16.3 | 5.22 | 6139 | 6765 | inactive
CG18764 | 1 | 4.36 | 7.1 | 6337 | 6482 | inactive
hry (hairy) | 1 | 1.14 | 5.11 | 6579 | 6856 | inactive
hry (hairy) | 2 | 2.3 | 8.59 | 6525 | 5459 | inactive
Lipt1 (Lipoyltransferase 1) | 1 | 14.9 | 6.13 | 6179 | 6310 | inactive
lig (lingerer) | 1 | 4.08 | 9.51 | 4458 | 4796 | inactive
lig (lingerer) | 2 | 6.52 | 17.3 | 5935 | 5146 | inactive
lig (lingerer) | 3 | 3.84 | 4.22 | 5177 | 4906 | inactive
wun (wunen) | 1 | 4.63 | 5.71 | 5205 | 5727 | inactive
